Measured values: patent US20220213176A1 (SHANGHAITECH UNIVERSITY, published 2022)

B1: S-B8 (antibody, V domains shown)
VH: QVQLVQSGGGLIQPGGSLRLSCAASGFTVSLSHMNWVRQAPGKGLEWVSITYGDGNSDYADSVKGRFTISRDNSKNTLYLQMNSLRAEDTAVYYCAREYYYGMDVWGQGTTVTVSS
VL: DIVMTQSPDSLAVSLGERATINCKSSQSVLYSSNNKNYLAWYQQKPGQPPKLLIYWASTRESGVPDRFSGSGSGTDFTLTISSLQAEDVAVYYCQQYYSLPLTFGGGTKLEIKR
notes: also called S-B8 dimer
B2: S-D4 (antibody, V domains shown)
VH: QVQLQESGGGVVQPGRSLRLSCEVSGFTFSDYGMHWVRQAPGKGLEWVAVIWSEGSTEYYADSVKGRFTISRDNSKDTLYLQMNSLRAEDTAVYYCARPGYPTSTDRSPAAAGARQYYYYGMDVWGQGTTVTVSS
VL: NFMLTQPHSVSESPGKTVTISCTRSGGSGAANYVQWYQQRPGSSPTTLIYEDSRRPPGVPDRFSGSVDTSSNSASLTISGLQTEDEADYYCQSYDSSNHVVFGGGTKLTVLG
notes: also called S-D4 dimer; S-D4 IgG4
B3: S-E6 (antibody, V domains shown)
VH: QVTLRESGPGLVKPSETLSLTCAVSGGSLSSVNYYWSWIRQHPGKGLEWIGYIYYSGSTNYNPSLKSRVTMSLDTSKNQFSLKLSSVTAADTAVYYCATPGAIMGALHIWGQGTLVTVSS
VL: QAVLTQPSSASSTPGQRVIISCSGSSSNIGSNTVSWYQQVPGAAPKLLIYFDYRRPSGVPDRFSGTRSGTSASLGISGLQSEDEADYYCAAWDDSLSAWVFGRGTKLTVLG
notes: also called S-E6 dimer; dimer S-E6

biological target: T1, SARS-CoV spike (SARS-CoV, UniProt P59594 14-1255); assay: FACS, transfected HEK293T cells, IgG4 antibody
T1 construct: whole, on cells

Row | Binder | binding result
1 | B1 | no binding
2 | B2 | no binding
3 | B3 | no binding

biological target: T2, MERS-CoV spike (MERS-CoV, UniProt K9N5Q8 18-1353); assay: FACS, transfected HEK293T cells, IgG4 antibody
T2 construct: whole, on cells

Row | Binder | binding result
4 | B1 | no binding
5 | B2 | no binding
6 | B3 | no binding
